Experimental data reported in patent EP4821928A1, “BICYCLIC HETEROCYCLIC COMPOUND AND FUNGICIDE FOR AGRICULTURAL AND HORTICULTURAL USE CONTAINING SAME AS ACTIVE INGREDIENT” (dated 2026).

Experiments:
Botrytis cinerea = experiment: Tomato gray mold pot test (Test Example B); settings: for control value: Test Example B, tomato gray mold pot test; for Tomato gray mold pot test (control value): 250 ppm sprayed, 2.5 ml/pot, tomato variety Oogata Fukuju, degree of disease development 2 to 3 days after inoculation
Magnaporthe grisea = experiment: Rice blast disease pot test (Test Example A); settings: for control value: Test Example A, rice blast disease pot test; for Rice blast disease pot test (control value): 250 ppm sprayed, 2.5 ml/pot, rice variety Sachikaze, degree of disease development 6 to 8 days after inoculation
[1] = tested on: Fusarium blight fungus (Fusarium graminearum); experiment: Fusarium blight anti-germ test (Test Example D); settings: for rate of inhibition: Test Example D, Fusarium blight anti-germ test; for Fusarium blight anti-germ test (rate of inhibition): 50 ppm/well, Czapek-dox broth, 25°C for 3 days, absorbance 600 nm
[2] = tested on: Gray mold fungus (Botrytis cinerea); experiment: Gray mold anti-germ test (Test Example C); settings: for rate of inhibition: Test Example C, gray mold anti-germ test; for Gray mold anti-germ test (rate of inhibition): 50 ppm/well, Czapek-dox broth, 25°C for 3 days, absorbance 600 nm
[3] = tested on: Anthracnose fungus (Glomerella cingulata); experiment: Anthracnose anti-germ test (Test Example E); settings: for rate of inhibition: Test Example E, anthracnose anti-germ test; for Anthracnose anti-germ test (rate of inhibition): 50 ppm/well, Czapek-dox broth, 25°C for 3 days, absorbance 600 nm
[4] = tested on: Speckled leaf blotch fungus (Septoria tritici); experiment: Speckled leaf blotch anti-germ test (Test Example F); settings: for rate of inhibition: Test Example F, speckled leaf blotch anti-germ test; for Speckled leaf blotch anti-germ test (rate of inhibition): 50 ppm/well, Czapek-dox broth, 25°C for 3 days, absorbance 600 nm

CCCC1(C)N=C(c2cnn3c(C)c(C)cnc23)c2ccc(F)c(F)c2O1 (stereo not drawn)
control value (Botrytis cinerea): H (H represents a control value or rate of inhibition of larger than 50%)
control value (Magnaporthe grisea): H (H represents a control value or rate of inhibition of larger than 50%)
rate of inhibition [1]: H (H represents a control value or rate of inhibition of larger than 50%)
rate of inhibition [2]: H (H represents a control value or rate of inhibition of larger than 50%)
rate of inhibition [3]: H (H represents a control value or rate of inhibition of larger than 50%)
rate of inhibition [4]: H (H represents a control value or rate of inhibition of larger than 50%)

Cc1cnc2c(C3=NC(C)(C)Oc4ccccc43)cnn2c1
control value (Botrytis cinerea): H (H represents a control value or rate of inhibition of larger than 50%)
control value (Magnaporthe grisea): H (H represents a control value or rate of inhibition of larger than 50%)
rate of inhibition [1]: L (L represents a control value or rate of inhibition of 50% or less)
rate of inhibition [2]: L (L represents a control value or rate of inhibition of 50% or less)
rate of inhibition [3]: H (H represents a control value or rate of inhibition of larger than 50%)
rate of inhibition [4]: L (L represents a control value or rate of inhibition of 50% or less)

Cc1ccc2c(C3=NC(C)(C)Oc4c(Br)cccc43)cnn2c1C
Tomato gray mold pot test (control value) (Botrytis cinerea): H (H represents a control value or rate of inhibition of larger than 50%)
Rice blast disease pot test (control value) (Magnaporthe grisea): H (H represents a control value or rate of inhibition of larger than 50%)
Fusarium blight anti-germ test (rate of inhibition) [1]: H (H represents a control value or rate of inhibition of larger than 50%)
Gray mold anti-germ test (rate of inhibition) [2]: H (H represents a control value or rate of inhibition of larger than 50%)
Anthracnose anti-germ test (rate of inhibition) [3]: H (H represents a control value or rate of inhibition of larger than 50%)
Speckled leaf blotch anti-germ test (rate of inhibition) [4]: L (L represents a control value or rate of inhibition of 50% or less)

COc1cccc2c1ncn2C1=NC(C)(C)Oc2cc(Br)ccc21
Tomato gray mold pot test (control value) (Botrytis cinerea): L (L represents a control value or rate of inhibition of 50% or less)
Rice blast disease pot test (control value) (Magnaporthe grisea): L (L represents a control value or rate of inhibition of 50% or less)
Fusarium blight anti-germ test (rate of inhibition) [1]: H (H represents a control value or rate of inhibition of larger than 50%)
Gray mold anti-germ test (rate of inhibition) [2]: H (H represents a control value or rate of inhibition of larger than 50%)
Anthracnose anti-germ test (rate of inhibition) [3]: H (H represents a control value or rate of inhibition of larger than 50%)
Speckled leaf blotch anti-germ test (rate of inhibition) [4]: H (H represents a control value or rate of inhibition of larger than 50%)

Cc1ccc2c(C3=NC(C)(C)Sc4ccccc43)cnn2c1C
Tomato gray mold pot test (control value) (Botrytis cinerea): H (H represents a control value or rate of inhibition of larger than 50%)
Rice blast disease pot test (control value) (Magnaporthe grisea): H (H represents a control value or rate of inhibition of larger than 50%)
Fusarium blight anti-germ test (rate of inhibition) [1]: H (H represents a control value or rate of inhibition of larger than 50%)
Gray mold anti-germ test (rate of inhibition) [2]: H (H represents a control value or rate of inhibition of larger than 50%)
Anthracnose anti-germ test (rate of inhibition) [3]: H (H represents a control value or rate of inhibition of larger than 50%)
Speckled leaf blotch anti-germ test (rate of inhibition) [4]: H (H represents a control value or rate of inhibition of larger than 50%)

CCCCC1(C)N=C(c2cnn3c(C)c(C)ccc23)c2ccccc2S1(=O)=O (stereo not drawn)
Tomato gray mold pot test (control value) (Botrytis cinerea): H (H represents a control value or rate of inhibition of larger than 50%)
Rice blast disease pot test (control value) (Magnaporthe grisea): H (H represents a control value or rate of inhibition of larger than 50%)
Fusarium blight anti-germ test (rate of inhibition) [1]: H (H represents a control value or rate of inhibition of larger than 50%)
Gray mold anti-germ test (rate of inhibition) [2]: H (H represents a control value or rate of inhibition of larger than 50%)
Anthracnose anti-germ test (rate of inhibition) [3]: H (H represents a control value or rate of inhibition of larger than 50%)
Speckled leaf blotch anti-germ test (rate of inhibition) [4]: L (L represents a control value or rate of inhibition of 50% or less)

Cc1cccc2c1ncn2C1=NC(C)(C)Sc2cc(F)ccc21
Tomato gray mold pot test (control value) (Botrytis cinerea): H (H represents a control value or rate of inhibition of larger than 50%)
Rice blast disease pot test (control value) (Magnaporthe grisea): H (H represents a control value or rate of inhibition of larger than 50%)
Fusarium blight anti-germ test (rate of inhibition) [1]: L (L represents a control value or rate of inhibition of 50% or less)
Gray mold anti-germ test (rate of inhibition) [2]: H (H represents a control value or rate of inhibition of larger than 50%)
Anthracnose anti-germ test (rate of inhibition) [3]: H (H represents a control value or rate of inhibition of larger than 50%)
Speckled leaf blotch anti-germ test (rate of inhibition) [4]: L (L represents a control value or rate of inhibition of 50% or less)

CCCCCC1(C)N=C(c2cnn3cc(C)cnc23)c2cccc(F)c2O1 (stereo not drawn)
control value (Botrytis cinerea): H (H represents a control value or rate of inhibition of larger than 50%)
control value (Magnaporthe grisea): H (H represents a control value or rate of inhibition of larger than 50%)
rate of inhibition [1]: H (H represents a control value or rate of inhibition of larger than 50%)
rate of inhibition [2]: H (H represents a control value or rate of inhibition of larger than 50%)
rate of inhibition [3]: H (H represents a control value or rate of inhibition of larger than 50%)
rate of inhibition [4]: H (H represents a control value or rate of inhibition of larger than 50%)

CCC1(C)N=C(c2cnn3c(C)c(C)ccc23)c2ccccc2S1 (stereo not drawn)
control value (Botrytis cinerea): H (H represents a control value or rate of inhibition of larger than 50%)
control value (Magnaporthe grisea): H (H represents a control value or rate of inhibition of larger than 50%)
rate of inhibition [1]: H (H represents a control value or rate of inhibition of larger than 50%)
rate of inhibition [2]: H (H represents a control value or rate of inhibition of larger than 50%)
rate of inhibition [3]: H (H represents a control value or rate of inhibition of larger than 50%)
rate of inhibition [4]: H (H represents a control value or rate of inhibition of larger than 50%)

Cc1cccc2c1OC(C)(C)N=C2n1cnc2c(C)c(C)ccc21
Tomato gray mold pot test (control value) (Botrytis cinerea): H (H represents a control value or rate of inhibition of larger than 50%)
Rice blast disease pot test (control value) (Magnaporthe grisea): H (H represents a control value or rate of inhibition of larger than 50%)
Fusarium blight anti-germ test (rate of inhibition) [1]: H (H represents a control value or rate of inhibition of larger than 50%)
Gray mold anti-germ test (rate of inhibition) [2]: H (H represents a control value or rate of inhibition of larger than 50%)
Anthracnose anti-germ test (rate of inhibition) [3]: H (H represents a control value or rate of inhibition of larger than 50%)
Speckled leaf blotch anti-germ test (rate of inhibition) [4]: H (H represents a control value or rate of inhibition of larger than 50%)

Cc1c(F)ccc2c1ncn2C1=NC(C)(C)Oc2c(Cl)cccc21
Tomato gray mold pot test (control value) (Botrytis cinerea): H (H represents a control value or rate of inhibition of larger than 50%)
Rice blast disease pot test (control value) (Magnaporthe grisea): H (H represents a control value or rate of inhibition of larger than 50%)
Fusarium blight anti-germ test (rate of inhibition) [1]: H (H represents a control value or rate of inhibition of larger than 50%)
Gray mold anti-germ test (rate of inhibition) [2]: H (H represents a control value or rate of inhibition of larger than 50%)
Anthracnose anti-germ test (rate of inhibition) [3]: H (H represents a control value or rate of inhibition of larger than 50%)
Speckled leaf blotch anti-germ test (rate of inhibition) [4]: L (L represents a control value or rate of inhibition of 50% or less)

Cc1ccc2c(ncn2C2=NC(C)(C)Sc3ccccc32)c1C
Tomato gray mold pot test (control value) (Botrytis cinerea): H (H represents a control value or rate of inhibition of larger than 50%)
Rice blast disease pot test (control value) (Magnaporthe grisea): H (H represents a control value or rate of inhibition of larger than 50%)
Fusarium blight anti-germ test (rate of inhibition) [1]: H (H represents a control value or rate of inhibition of larger than 50%)
Gray mold anti-germ test (rate of inhibition) [2]: H (H represents a control value or rate of inhibition of larger than 50%)
Anthracnose anti-germ test (rate of inhibition) [3]: H (H represents a control value or rate of inhibition of larger than 50%)
Speckled leaf blotch anti-germ test (rate of inhibition) [4]: L (L represents a control value or rate of inhibition of 50% or less)

Cc1cccc2c1OC(C)(C)N=C2n1cnc2c(C)c(Cl)ccc21
Tomato gray mold pot test (control value) (Botrytis cinerea): L (L represents a control value or rate of inhibition of 50% or less)
Rice blast disease pot test (control value) (Magnaporthe grisea): H (H represents a control value or rate of inhibition of larger than 50%)
Fusarium blight anti-germ test (rate of inhibition) [1]: H (H represents a control value or rate of inhibition of larger than 50%)
Gray mold anti-germ test (rate of inhibition) [2]: H (H represents a control value or rate of inhibition of larger than 50%)
Anthracnose anti-germ test (rate of inhibition) [3]: H (H represents a control value or rate of inhibition of larger than 50%)
Speckled leaf blotch anti-germ test (rate of inhibition) [4]: H (H represents a control value or rate of inhibition of larger than 50%)

Cc1ccc2c(ncn2C2=NC(C)(C)[S+]([O-])c3cc(F)ccc32)c1C (stereo not drawn)
Tomato gray mold pot test (control value) (Botrytis cinerea): H (H represents a control value or rate of inhibition of larger than 50%)
Rice blast disease pot test (control value) (Magnaporthe grisea): H (H represents a control value or rate of inhibition of larger than 50%)
Fusarium blight anti-germ test (rate of inhibition) [1]: H (H represents a control value or rate of inhibition of larger than 50%)
Gray mold anti-germ test (rate of inhibition) [2]: H (H represents a control value or rate of inhibition of larger than 50%)
Anthracnose anti-germ test (rate of inhibition) [3]: H (H represents a control value or rate of inhibition of larger than 50%)
Speckled leaf blotch anti-germ test (rate of inhibition) [4]: L (L represents a control value or rate of inhibition of 50% or less)
